{"source": "patent US12023336B2", "about": "“Antiviral drug compounds and composition thereof” (priority 2018, dated 2024)", "tested_on": "HIV-1NL4.3", "settings": "CEM-GFP cells", "data": [{"substance": "MTX-d3 heptaglutamate", "values": [{"measurement": "TI (Therapeutic index = CC50/IC50)", "result": 519.97}]}]}
